Measured values from several laboratories, pooled; numbers as filed in NIAID ChemDB.

All rows: host cell toxicity; cell line: MT-4; method: MTT; read-out: CC50

Neighbouring rows are from separate reports.

SMILES | value
CCc1c(CCC2CCCCC2)nc(SCC(=O)c2ccc(F)cc2)[nH]c1=O | 164 µM
CCn1cc(C(=O)OCC2OC(n3cc(C)c(=O)[nH]c3=O)CC2N=[N+]=[N-])c(=O)c2cc(F)c(N3CCN(C(=O)OCc4ccccc4)C(C)C3)c(F)c21 | 45.04 µM
N#Cc1ccc(Nc2nccc(C(O)c3cccc4ccccc34)n2)cc1 | 6.5 µM
CCCCN(CCCC)c1nc(Cc2cccc3ccccc23)c(C)c(=O)[nH]1 | >331 µM
Cn1c(CN(CCN2CCCCC2)CC2CCCN(C3CCCC3)C2)nc2ccccc21 | 40 µM
COc1ccc(Sc2nc(Cc3c(Cl)cccc3Cl)c(C)c(=O)[nH]2)cn1 | >61.3 µM
Cn1ncc2c1S(=O)(=O)N(CCc1ccccc1)C(=O)N2CCc1ccc(Cl)cc1Cl | >277.2 µM
COc1c(N2CCN(C(=O)OCc3ccccc3)C(C)C2)c(F)cc2c(=O)c(C(=O)OCC3OC(n4cc(C)c(=O)[nH]c4=O)CC3N=[N+]=[N-])cn(C3CC3)c12 | 27.27 µM
Cn1ncc2c1S(=O)(=O)N(CCc1ccccc1)C(=O)N2CCc1ccccc1 | ≥319.4 µM
O=C(O)P(=O)(O)O | 188 µg/mL
Cc1c(CCC2CCCCC2)nc(SCC(=O)c2ccc(O)cc2)[nH]c1=O | 8.2 µM
COC(=O)c1c(C(C)C)s/c(=N\S(=O)(=O)c2cccc([N+](=O)[O-])c2)n1C | >25 µM
C[C@H](CCC(=O)NCCS(=O)(=O)O)[C@H]1CC[C@H]2[C@@H]3CC[C@@H]4C[C@H](O)CC[C@]4(C)C3CC[C@]12C | >250 µg/mL
CCc1c(Cc2cccc3ccccc23)nc(N)[nH]c1=O | 91.82 µM
Cc1c(Cc2c(F)cccc2F)nc(Sc2ccc(Cl)cc2)[nH]c1=O | >66.1 µM
Cc1c(C(C)(C)C)s/c(=N\S(=O)(=O)c2cccc([N+](=O)[O-])c2)n1C | >25 µM
Cc1c(Cc2c(F)cccc2F)nc(Sc2ccc(F)cc2F)[nH]c1=O | >65.8 µM
NCCCCN(Cc1nc2ccccc2[nH]1)C1CCCc2cccnc21 | >10 µM
Cc1c(Cc2cccc3ccccc23)nc(N2CC2)[nH]c1=O | 391 µM
Cc1cn(C2CC(N=[N+]=[N-])C(COC(=O)c3cn4c5c(c(N6CCN(C)CC6)c(F)cc5c3=O)OC[C@@H]4C)O2)c(=O)[nH]c1=O | 41.71 µM
CCCNc1nc(C(C)c2c(F)cccc2F)c(C)c(=O)[nH]1 | 70 µM
Cn1ncc2c1S(=O)(=O)N(CCc1ccc(Cl)cc1)C(=O)N2CCc1ccc(Cl)cc1 | 6.7 µM
CCCCc1c(Cc2cccc3ccccc23)nc(N(CC)CC)[nH]c1=O | 258 µM
Cn1ncc2c1S(=O)(=O)N(CCc1ccccc1)C(=O)N2CCc1ccc(Br)cc1 | 54.7 µM
OC[C@H]1N[C@H](CO)[C@@H](O)[C@@H]1O | >250 µg/mL
O=C(CSc1nc(CCC2CCCCC2)cc(=O)[nH]1)c1ccc(F)cc1 | 80 µM
Cn1ncc2c1S(=O)(=O)N(CCc1ccccc1)C(=O)N2CCC#N | ≥209.4 µM
Nc1ccn([C@@H]2O[C@H](CO)C[C@@H]2F)c(=O)n1 | 150 µg/mL
Cc1cn(C2CC(N=[N+]=[N-])C(COC(=O)c3cn(C4CC4)c4cc(N5CCN(C(=O)OCc6ccccc6)CC5)c(F)cc4c3=O)O2)c(=O)[nH]c1=O | 131 µM
Cn1ncc2c1S(=O)(=O)N(CCc1ccccc1)C(=O)N2CCc1ccccc1Cl | >300.1 µM
C=Cc1s/c(=N\S(=O)(=O)c2cccc([N+](=O)[O-])c2)n(C)c1C | 4.4 µM
Cn1ncc2c1S(=O)(=O)N(CCc1ccccc1)C(=O)N2CCc1ccc(C(C)(C)C)cc1 | >285.4 µM
CC(C)Cc1c(C(C)C)s/c(=N\S(=O)(=O)c2cccc([N+](=O)[O-])c2)n1C | 21.4 µM
Cc1cnc(Nc2ccc(C#N)cc2)nc1C(O)c1ccc2ccccc2c1 | 6.1 µM
Cc1cn([C@H]2C[C@H](N=[N+]=[N-])[C@@H](CO)O2)c(=O)[nH]c1=O | 3.7 µM
O=c1cc2ccccc2c(O)n1O | 69.13 µM
CCOP(=O)(N[C@@H](CC(C)C)C(=O)OC)OC[C@H]1O[C@@H](n2cc(C)c(=O)[nH]c2=O)C[C@@H]1N=[N+]=[N-] | 233 µg/mL
Cc1c(Cc2c(F)cccc2F)nc(Sc2ccccc2)[nH]c1=O | >72.7 µM
Nc1ncc(CN(CCN2CCCCC2)CC2CCCN(C3CCCC3)C2)cn1 | >100 µM
Cn1ncc2c1S(=O)(=O)N(CCc1ccccc1)C(=O)N2CCc1ccc(Cl)cc1 | 53.9 µM
Cc1c(C(C)C2CCCCC2)nc(SCC(=O)c2ccc(O)cc2)[nH]c1=O | 13 µM
CCc1c(Cc2cccc3ccccc23)nc(Nc2ccc(Cl)cc2)[nH]c1=O | ≥152.1 µM
Cc1ccnc2c1NC(=O)c1cccnc1N2C1CC1 | >4 µM
CCCCc1c(Cc2cccc3ccccc23)nc(NCc2ccccc2)[nH]c1=O | 40.75 µM
Nc1ccn([C@H]2CC[C@@H](CO)O2)c(=O)n1 | 9.6 µg/mL

5 of the rows above, restated:

SMILES | value
Cn1ncc2c1S(=O)(=O)N(CCc1ccccc1)C(=O)N2CCc1ccc(Cl)cc1Cl | >277.2 µM
Cc1c(Cc2c(F)cccc2F)nc(Sc2ccc(Cl)cc2)[nH]c1=O | >66.1 µM
CCCCN(CCCC)c1nc(Cc2cccc3ccccc23)c(C)c(=O)[nH]1 | >331 µM
O=c1cc2ccccc2c(O)n1O | 69.13 µM
CCCCc1c(Cc2cccc3ccccc23)nc(N(CC)CC)[nH]c1=O | 258 µM

CCn is the concentration with n% toxicity to the cells.